Assay results published in patent publication US6333406A, “Gene encoding protein antigens of Plasmodium falciparum and uses therefor” (priority 1994, dated 2001).

System: Nc1nc2c(c(=O)[nH]1)N=C(CNc1ccc(C(=O)N[C@@H](CCC(=O)O)C(=O)O)cc1)CN2
Test: purified protein, by the assay type
Settings: pH 7.6, 37.0 °C

“DHFR^Thr108 (reconstructed P. falciparum DHFR) (Plasmodium falciparum K1; N108T/R59C)” was tested, and the Km (other: substrate Km of DHFR^Thr108, as stated in text) was 17 µM and the Km (other: substrate Km, reconstructed P.f. DHFR Thr108 (Table IV)) was 16.8 ± 0.6 µM.
